Experimental data as given in patent US6649639B2, “Antipicornaviral compounds, compositions containing them, and methods for their use” (priority 1997, dated 2003).

Columns and labels:
Type in all cases: cell-based, human rhinovirus
Conditions in all cases: CC50 divided by EC50
HRV serotype-14 = assay: Antirhinoviral HI-HeLa Cell Culture Assay (XTT cell protection), HRV-14
Procedure: (§1) In the Cell Protection Assay, the ability of compounds to protect cells against HRV infection was measured by the XTT dye reduction method. This method is described in Weislow, O. S., Kiser, R., Fine, D. L., Bader, J., Shoemaker, R. H., Boyd, M. R., J. Natl. Cancer Inst. 1989, 81, 577-586, the disclosure of which is incorporated herein by reference.
(§2) Infected or mock-infected cells were suspended at 8×10^5 cells per mL and incubated with appropriate concentrations of compounds of formula I. Two days later, XTT/PMS was added to test plates, and the amount of formazan produced was quantified spectrophotometrically at 450/650 nm. […] The therapeutic index (TI) was calculated by dividing the CC50 by the EC50.
(§3) All strains of human rhinovirus (HRV) for use in this assay were purchased from American Type Culture Collection (ATCC) except for HRV serotype-14, which was produced from the infectious cDNA clone constructed and supplied to Applicants by Dr. Robert Rueckert at the Institute for Molecular Virology, University of Wisconsin, Madison, Wis. HRV stocks were propagated, and viral assays were performed in HI-HeLa cells (ATCC). Cells were grown in Minimal Essential Medium, available from Life Technologies, with 10% fetal bovine serum.
(§4) The compounds were tested against control compounds WIN 51711, WIN 52084, and WIN 54954, all obtained from Sterling-Winthrop Pharmaceuticals, and control compound Pirodavir, obtained from Janssen Pharmaceuticals. Antiviral data obtained for the test compounds are shown in Table 2 where all data are for HRV serotype-14 unless otherwise noted in parentheses.

HRV serotype 10 = assay: Antirhinoviral HI-HeLa Cell Culture Assay (XTT cell protection), HRV serotype 10
Procedure: as §1, §2, §3, §4

HRV serotype 1A = assay: Antirhinoviral HI-HeLa Cell Culture Assay (XTT cell protection), HRV serotype 1A
Procedure: as §1, §2, §3, §4

Structure (SMILES) | TI (HRV serotype-14) | TI (HRV serotype 10) | TI (HRV serotype 1A)
CCOC(=O)/C=C/C(CCC(N)=O)NC(=O)C(CC(=O)C(CC(C)C)NC(=O)OCc1ccccc1)Cc1ccccc1 [Compound 1, Ethyl-3-(CBZ-L-LeuΨ[COCH2]-L-Phe-L-Gln)-E-Propenoate] | >889 | – | –
CCOC(=O)C=CC(CCC(N)=O)NC(=O)C(CC(=O)C(NC(=O)SC(C)(C)C)C(C)C)Cc1ccc(F)cc1 (centres unmarked) [Compound 26] | >200 | >18 | >20
CCOC(=O)C=CC(CCC(N)=O)NC(=O)C(CC(=O)C(NC(=O)C1SCCS1)C(C)C)Cc1ccc(F)cc1 (centres unmarked) [Compound 27] | >16 | >0.3 | >0.5
CC(C)C(NC(=O)SC1CCCC1)C(=O)CC(Cc1ccc(F)cc1)C(=O)NC(C=CC(=O)OCc1cccnc1)CCC(N)=O (centres unmarked) [Compound 28] | >400 | >10 | >16
CC(C)C(NC(=O)C1SCCS1)C(=O)CC(Cc1ccc(F)cc1)C(=O)NC(C=CC(=O)OCc1cccnc1)CCC(N)=O (centres unmarked) [Compound 30] | >66 | – | –
CCOC(=O)C=CC(CCC(N)=O)NC(=O)C(CC(=O)C(NC(=O)C1SCCCS1)C(C)C)Cc1ccc(F)cc1 (centres unmarked) [Compound 31] | >18 | >0.6 | >0.4
CC(C)C(NC(=O)SC(C)(C)C)C(=O)CC(Cc1ccc(F)cc1)C(=O)NC(C=CC(=O)OCc1cccnc1)CCC(N)=O (centres unmarked) [Compound 32] | >80 | >16 | >14
CC(C)C(NC(=O)SC1CCCC1)C(=O)CC(Cc1ccc(F)cc1)C(=O)NC(C=CC(=O)OCCO)CCC(N)=O (centres unmarked) [Compound 33] | >62 | >20 | >18
CCOC(=O)C=CC(CCC(N)=O)NC(=O)C(CC(=O)C(NC(=O)c1cc(C)on1)C(C)C)Cc1ccc(F)cc1 (centres unmarked) [Compound 34] | >30 | >7 | >10
